Pooled drug test results. Numbers come from NIAID ChemDB, via PubChem.

Shared fields: tests in culture; species: HIV-1; endpoint: EC50

Rows are shuffled and stem from different studies. ECn: concentration that inhibits the pathogen or its effect by n%. Blank or dashed fields: not listed here. Two numbers with a dash give a range or band.

smiles,strain or isolate,mutations,cells,read by,result
Cc1nc(C(=O)N2CCN(C(=O)C(=O)c3c[nH]c4cccc(Cl)c34)CC2)cs1,-,-,HeLa + HELA CD4+/CCR5,luciferase,<10 µM
N#CC1=CC2Nc3ccccc3C2N(c2ccc([N+](=O)[O-])cc2)C1=O,83-2/B1-T20r,Q40K,HeLa,GFP / fluorescence,0.1 µM
CC(C)C1=C2[C@H]3CC[C@@H]4[C@@]5(C)CC[C@H](OC(=O)[C@H]6C[C@@H](C(=O)O)C6(C)C)C(C)(C)[C@@H]5CC[C@@]4(C)[C@]3(C)CC[C@@]2(CCNC[C@H](CO)NC(=O)c2ccc(Cl)cc2)CC1=O,92HT599,-,MT-2,p24 / ELISA,<1 µM
O=C(C(=O)N1CCN(C(=O)N2NC=CS2)CC1)c1c[nH]c2cccc(F)c12,-,-,HeLa + HELA CD4+/CCR5,luciferase,<10 µM
Cc1nc(C)c(C(=O)NC(C)(C)CNC[C@H](O)[C@@]23CC[C@]4(C)[C@H](CC[C@@H]5[C@@]6(C)CC[C@H](OC(=O)[C@H]7C[C@@H](C(=O)O)C7(C)C)C(C)(C)[C@@H]6CC[C@]54C)C2=C(C(C)C)C(=O)C3)s1,92HT599,-,MT-2,p24 / ELISA,<1 µM
C[C@@H]1CN(C(=O)c2ccccc2)CCN1C(=O)C(=O)c1c[nH]c2cccc(Cl)c12,-,-,HeLa + HELA CD4+/CCR5,luciferase,<10 µM
CC(C)=CCOc1cc(NC(=S)c2ccoc2C)ccc1Cl,Oxathiin carboxanilide-resistant RT L100I,RT-L100I,CEM + CEM-SS,cytopathic effect / XTT,0.5 µM
O=C(O)c1cc(-n2cccc2)ccc1Cl,CMU02 X4 CLADE EA,-,PBMC/5.25M7,luciferase / cell fusion,22 µM
Cc1cc(C#N)cc(C(=O)c2cc(Cl)ccc2OCC(=O)Nc2ccc(S(N)(=O)=O)nc2C)c1,HXB2,RT-V106I,HeLa + HELA CD4+,β-galactosidase,<0.01 µM
C[C@H]1CN(C(=O)c2ccccc2)CCN1C(=O)C(=O)c1c[nH]c2ccc(F)cc12,-,-,HeLa + HELA CD4+/CCR5,luciferase,<10 µM
CCCc1cc(=O)oc2c3c(c4c(c12)OC(C)(C)CC4)O[C@@H](C)[C@H](C)[C@@H]3O,NL4-3(RT-4XAZT+Y181C),RT-D67N K70R Y181C T215Y K219Q,CEM + CEM-SS,XTT,<0.06 µM
CC(=O)c1c(C)nc(-c2ccccc2)nc1NC(=O)c1ccccc1,CBL-20/H9,-,HeLa,GFP / fluorescence,>50 µM
CC(C)C1=C2[C@H]3CC[C@@H]4[C@@]5(C)CC[C@H](OC(=O)[C@H]6C[C@@H](C(=O)O)C6(C)C)C(C)(C)[C@@H]5CC[C@@]4(C)[C@]3(C)CC[C@@]2([C@@H](O)CNCC(C)(C)NC(=O)CN2CCOCC2)CC1=O,92HT599,-,MT-2,p24 / ELISA,<1 µM
Cc1cc2cn[nH]c2cc1NC(=O)COc1ccc(Cl)cc1C(=O)c1cccc(C#N)c1,HXB2,RT-V106I,HeLa + HELA CD4+,β-galactosidase,<0.01 µM
CC(C)C1=C2[C@H]3CC[C@@H]4[C@@]5(C)CC[C@H](OC(=O)[C@H]6C[C@@H](C(=O)O)C6(C)C)C(C)(C)[C@@H]5CC[C@@]4(C)[C@]3(C)CC[C@@]2(CCNC(=O)Cc2ccc(Cl)cc2)CC1=O,92HT599,-,MT-2,p24 / ELISA,<1 µM
CC(C)=CCOc1cc(NC(=S)c2ccoc2C)ccc1Cl,IIIB,-,CEM + CEM-SS,p24,0.008 µM
CCC(=O)c1ccc(F)c([C@@H]2C[C@@H]2NC(=O)Nc2ccc(C#N)cn2)c1O,LAI,NNRTI-resistant (RT M230L),TZM-bl,β-galactosidase / luminescence,0.0153 µM
CC(C)C1=C2[C@H]3CC[C@@H]4[C@@]5(C)CC[C@H](OC(=O)[C@H]6C[C@@H](C(=O)O)C6(C)C)C(C)(C)[C@@H]5CC[C@@]4(C)[C@]3(C)CC[C@@]2(CC(=O)NC(CCCCN)CNC(=O)c2ccc(Cl)cc2)CC1=O,92HT599,-,MT-2,p24 / ELISA,<1 µM
Cc1cc2[nH]cnc2cc1NC(=O)COc1ccc(Cl)cc1C(=O)c1cc(F)cc(C(F)(F)F)c1,HXB2,RT-K103N,HeLa + HELA CD4+,β-galactosidase,<0.01 µM
COC(=O)c1cccc2c(C(=O)C(=O)N3CCN(C(=O)c4ccccc4)CC3C(C)(C)C)c[nH]c12,-,-,HeLa + HELA CD4+/CCR5,luciferase,<10 µM
C[C@@H]1CCO[C@H]2Cn3cc(C(=O)NCc4ccc(F)cc4F)c(=O)c(O)c3C(=O)N12,NL4-3,M50I,CBMC,RT activity,0.0011 µM
CC(C)C1=C2[C@H]3CC[C@@H]4[C@@]5(C)CC[C@H](OC(=O)[C@H]6C[C@@H](C(=O)O)C6(C)C)C(C)(C)[C@@H]5CC[C@@]4(C)[C@]3(C)CC[C@@]2([C@@H](O)CNCc2ccc(N3CCS(=O)(=O)CC3)nc2)CC1=O,92HT599,-,MT-2,p24 / ELISA,<1 µM
Cc1cc(S(N)(=O)=O)ccc1NC(=O)COc1ccc(Cl)cc1C(=O)c1cc(F)cc(C(F)(F)F)c1,WTRVA,-,HeLa + HELA CD4+,β-galactosidase,<0.01 µM
O=C(C(=O)N1CCN(C(=O)c2ccco2)CC1)c1c[nH]c2c(F)ccc(F)c12,-,-,HeLa + HELA CD4+/CCR5,luciferase,<10 µM
Cc1nnc(C(=O)N(CCN(C)C)C[C@H](O)[C@@]23CC[C@]4(C)[C@H](CC[C@@H]5[C@@]6(C)CC[C@H](OC(=O)[C@H]7C[C@@H](C(=O)O)C7(C)C)C(C)(C)[C@@H]6CC[C@]54C)C2=C(C(C)C)C(=O)C3)o1,92HT599,-,MT-2,p24 / ELISA,<1 µM
Cc1cc(S(N)(=O)=O)ccc1NC(=O)COc1ccc(Cl)cc1C(=O)c1cc(F)cc(F)c1,HXB2,RT-Y181C,HeLa + HELA CD4+,β-galactosidase,<0.01 µM
C[C@H]1CN(C(=O)c2ccccc2)CCN1C(=O)C(=O)c1c[nH]c2cc(Cl)c(Cl)cc12,-,-,HeLa + HELA CD4+/CCR5,luciferase,<10 µM
O=C(COc1ccc(Cl)cc1C(=O)c1ccccc1)Nc1ccc(-n2cncn2)cc1,HXB2,RT-K103N,HeLa + HELA CD4+,β-galactosidase,0.011–0.1 µM
Cc1cn(-c2ccc(C(=O)NC(C)(C)CNC[C@H](O)[C@@]34CC[C@]5(C)[C@H](CC[C@@H]6[C@@]7(C)CC[C@H](OC(=O)[C@H]8C[C@@H](C(=O)O)C8(C)C)C(C)(C)[C@@H]7CC[C@]65C)C3=C(C(C)C)C(=O)C4)cc2)cn1,92HT599,-,MT-2,p24 / ELISA,<1 µM
O=C(C(=O)N1CCN(C(=O)c2ccccc2)CC1)c1c[nH]c2c(F)cccc12,-,-,HeLa + HELA CD4+/CCR5,luciferase,<10 µM
Cc1cc(OCCCS(N)(=O)=O)ccc1NC(=O)COc1ccc(Cl)cc1C(=O)c1cc(F)cc(C(F)(F)F)c1,HXB2,RT-Y188C,HeLa + HELA CD4+,β-galactosidase,<0.01 µM
CC(C)C1=C2[C@H]3CC[C@@H]4[C@@]5(C)CC[C@H](OC(=O)[C@H]6C[C@@H](C(=O)O)C6(C)C)C(C)(C)[C@@H]5CC[C@@]4(C)[C@]3(C)CC[C@@]2([C@@H](O)CNC(=O)c2ccc(N3CCS(=O)(=O)CC3)nc2)CC1=O,92HT599,-,MT-2,p24 / ELISA,<1 µM
CC(C)=CCOc1cc(NC(=S)c2ccsc2C)ccc1Cl,NL4-3 (RT Y188C),RT-Y188C,CEM + CEM-SS,cytopathic effect / XTT,0.006 µM